## Screening data, single-dose tests

The values are deposited in ChEMBL (CHEMBL3988442, “University of Dundee, Small-Polar-MMV Screening Library” (2021)).

Each number is a percent effect as filed.
The controls that fix the scale are not given in the record; negative values are as filed.
Many other results are left out here, so strong results are more common than in the screen.
Two or more numbers in one place are separate tests of the same structure; such repeats can differ widely.

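Whole-cell growth test on Mycobacterium tuberculosis, read after 3 days in glucose-containing 7H9 medium; the read-out is not stated. Compounds at 50 µM. Higher reads as more growth inhibition (inferred: compounds with an IC50 in retests scored well above the rest). Of about 69,000 compounds tested this way, about 760 (1.1%) reached 50% or more in at least one test.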

structure: CCC(C)NC(=O)c1cncc(Br)c1 (stereo not shown)
Percent Effect: -1.287

structure: O=S(=O)(c1ccccc1N1CC(n2cccn2)C1)C(F)(F)F
Percent Effect: 6.756

structure: Cc1ccn(-c2ccccc2NCc2cscn2)n1
Percent Effect: 35.28 & 13.29

structure: Cc1cnn(CC2CN(c3cnc4ccccc4n3)CCO2)c1 (stereo not shown)
Percent Effect: 64.96

structure: CCCc1nn(Cc2csc(CC)n2)c(=O)o1
Percent Effect: 49.13

structure: OC1CCN([C@@H]2CCN(c3nc(-c4ccccc4)no3)C[C@H]2O)CC1
Percent Effect: -18.46

structure: COCCC(=O)N1CCC(Nc2ncc(Br)cn2)CC1
Percent Effect: 8.3

structure: COc1cccc(CNC(=O)NC2(c3nc(C)no3)CCCCC2)c1
Percent Effect: -2.517 & 2.558

structure: CC(CO)NC(=O)Nc1ccc(CC#N)cc1 (stereo not shown)
Percent Effect: 5.733 & 6.187

structure: N#CC1(C(=O)NCCCNc2ccc(C(F)(F)F)cn2)CCCC1
Percent Effect: 109.7

structure: Cc1cc(C)cc(-n2ncc3c2CCCC3N)c1 (stereo not shown)
Percent Effect: 38.65

structure: CC(=O)Nc1nc(SCc2ccc3c(c2)OCO3)ns1
Percent Effect: -5.052

structure: CC(Oc1ccc2c(c1)OCO2)C(=O)N1CCC(N2CCCC2)CC1 (stereo not shown)
Percent Effect: 5.198

structure: c1cncc(NCCNC2CCSC2)c1 (stereo not shown)
Percent Effect: -29.33

structure: Cc1ccc(C(=O)NCCSCc2cccs2)cn1
Percent Effect: -12.48

structure: COc1ccc(Oc2cccnc2)cc1CN1CCCC1
Percent Effect: -38.58 & 3.228

structure: COc1cccn(Cc2nnc(-c3cccnc3)o2)c1=O
Percent Effect: 22.35

structure: CSCCC1c2nc[nH]c2CCN1Cc1ccccc1C#N (stereo not shown)
Percent Effect: -14.61

structure: COCCC(=O)N1CCc2cc(Cl)cc(Cl)c2C1
Percent Effect: 55.21

structure: CN1CCC(c2cccc(Cc3ccc(C(F)(F)F)cc3)n2)CC1
Percent Effect: 51.26

structure: Cc1ccc2nnc(C(=O)NCC3CCCC3)nc2c1
Percent Effect: 75.15 & 67.55

structure: CC(=O)Nc1ccc(SCC(O)COCc2ccco2)cc1 (stereo not shown)
Percent Effect: -4.486 & 1.171

structure: CC(C)C(C)N(C)Cc1nnc(-c2ccc(Br)s2)o1 (stereo not shown)
Percent Effect: 51.47

structure: COc1ccc(C[C@H]2CN(C(=O)c3ccc(C)nc3)CC[C@@H]2OC)cc1.O=C(O)C(F)(F)F
Percent Effect: 16.34

structure: O=c1c2cc3c(cc2nnn1Cc1ccccc1Cl)OCCO3
Percent Effect: 71.34

structure: COc1ccc(CN2C[C@@H](CN(C)C)[C@@H](CO)C2)c(Cl)c1OC
Percent Effect: -13.34

structure: Cc1ccc(NC(=O)CS(=O)(=O)NC2CCC(C)CC2)nc1 (stereo not shown)
Percent Effect: 50.81

structure: Fc1ccc(COCC2CCN(Cc3ccccn3)CC2)cc1.O=C(O)C(=O)O
Percent Effect: 21.98

structure: CCOc1ccc(N2CCC(C(O)c3ccccc3)CC2)nn1 (stereo not shown)
Percent Effect: -13.77

structure: Cc1cc(CN2CCN(C(=O)Nc3cccnc3)CC2)on1
Percent Effect: -5.607

structure: CC(C)Oc1cccc(C(=O)C2CCCN(C(=O)c3ccnn3C)C2)c1 (stereo not shown)
Percent Effect: -10.13

structure: COCCCSc1ccc(NCc2cscn2)cc1
Percent Effect: 26.24 & 31.18

structure: COc1ccc(NC(=O)Cn2nc(C)c(C(C)=O)c2C)cc1
Percent Effect: 78.1 & 69.7

structure: CC(C)NC(=O)N1CCC(n2ccc(C(F)(F)F)n2)CC1
Percent Effect: -0.6949 & -4.02

structure: CN(C)C(=O)CN1CCCC1c1nc(N)ncc1-c1ccc(F)cc1 (stereo not shown)
Percent Effect: 12.72

structure: Clc1ccccc1C1(c2ccnc(C3CC3)n2)CCNCC1
Percent Effect: -9.656

structure: Cl.NCCNS(=O)(=O)Cc1ccc(Br)cc1
Percent Effect: -8.434

structure: CC1(c2ccccc2)CCCN(Cc2nnc(-c3cccnc3)o2)C1 (stereo not shown)
Percent Effect: 51.81

structure: Cc1c[nH]c(CN2CCC3(CCCN(Cc4ccc(F)c(F)c4)C3)C2)n1 (stereo not shown)
Percent Effect: 51.36

structure: CC(NCc1ccc(OCC(N)=O)cc1)c1ccc(Cl)c(Cl)c1.Cl (stereo not shown)
Percent Effect: 56.47

structure: Cc1nc2c(c(NCCc3nc(C)c(Cl)s3)n1)CCNCC2
Percent Effect: 0.5022 & 2.378

structure: CCCc1cc(C(=O)NCCN2C(=O)c3ccccc3C2=O)[nH]n1
Percent Effect: 34.42

The last 2 entries again:

structure,Percent Effect
Cc1nc2c(c(NCCc3nc(C)c(Cl)s3)n1)CCNCC2,0.5022 & 2.378
CCCc1cc(C(=O)NCCN2C(=O)c3ccccc3C2=O)[nH]n1,34.42